# HIV-1 1203 Vif substitutions under APOBEC3G selection

Data from the supplement of Langley et al. 2025, preprint, doi:10.1101/2025.10.20.683452.

Scanned stretch, residues 12 to 115 of Vif from HIV-1 1203 (a subtype B primary isolate):
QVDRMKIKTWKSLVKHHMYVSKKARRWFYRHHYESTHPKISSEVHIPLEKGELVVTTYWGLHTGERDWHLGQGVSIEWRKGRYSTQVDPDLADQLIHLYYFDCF

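A pool of vif mutants was passaged twice, 72 h each, on SupT1 cells that express APOBEC3G. Frequencies after the second round, in three biological replicates, were compared with the merged pool after the first round. Changes do not touch integrase, since the pol overlap was removed.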

Values are log2 enrichment relative to wild type (0); lower means weaker defence against APOBEC3G and poorer growth. Substitutions are written as wild-type residue, site number, new residue. The median of three replicates is given, with the replicates in brackets. Input reads are the counts in the merged round-one pool, before selection. Replicates agree only moderately (rank correlation about 0.4-0.65); scores from under about 50 input reads tend to be too high. Some changes are missing from the data or left out. Positive scores are uncertain; some enriched variants did not exclude APOBEC3G in a separate test.

Q12G (input reads 39): 0.58 (-0.43 / 4.19 / 0.58).
I18Q (input reads 256): -1.97 (-1.97 / -2.74 / -1.64).
K19H (input reads 646): -2.18 (-2.18 / -2.90 / -1.82).
T20W (input reads 333): 1.07 (0.45 / 1.34 / 1.07).
S23G (input reads 169): 0.55 (5.62 / -0.21 / 0.55).
L24Q (input reads 32): -1.48 (-2.04 / 4.95 / -1.48).
L24R (input reads 300): -2.26 (-2.74 / -2.26 / -1.63).
V25F (input reads 197): -1.83 (-1.83 / -4.47 / -1.27).
K26E (input reads 18): -0.30 (-0.47 / -0.30 / 1.21).
H27P (input reads 107): -2.85 (-3.01 / -2.85 / -1.31).
M29W (input reads 580): -1.71 (-1.66 / -1.71 / -1.76).
Y30E (input reads 601): -1.65 (-1.65 / -2.53 / 0.74).
V31D (input reads 1096): -0.78 (-1.18 / 0.64 / -0.78).
S46F (input reads 32): -0.14 (-0.14 / -0.62 / 4.51).
S46I (input reads 19): 0.52 (2.75 / -0.36 / 0.52).
S46V (input reads 98): 3.10 (-0.34 / 3.10 / 3.79).
E54S (input reads 1934): -2.01 (-1.14 / -2.24 / -2.01).
E54T (input reads 192): -2.07 (-2.07 / -3.20 / -1.92).
H56G (input reads 219): -1.81 (-0.58 / -1.81 / -2.10).
I57P (input reads 135): -2.30 (-1.76 / -2.68 / -2.30).
P58L (input reads 294): -1.25 (-1.25 / -1.06 / -2.16).
P58Q (input reads 804): -2.39 (-2.70 / -2.39 / -2.20).
E60N (input reads 590): -0.34 (5.31 / -1.34 / -0.34).
G71Y (input reads 398): -2.53 (-1.60 / -2.53 / -2.55).
H73T (input reads 186): -2.96 (-2.96 / -3.65 / -2.12).
G75D (input reads 24): 0.18 (5.61 / 0.18 / 0.17).
Q83E (input reads 81): -0.15 (3.90 / -1.07 / -0.15).
Q83H (input reads 466): -2.70 (-2.70 / -2.76 / -2.52).
V85F (input reads 271): -1.86 (-1.92 / -1.86 / -1.63).
S95W (input reads 406): -2.29 (-0.65 / -3.64 / -2.29).
D101F (input reads 277): -2.23 (-1.94 / -3.11 / -2.23).
A103I (input reads 676): -3.06 (-0.31 / -3.32 / -3.06).
L106Y (input reads 233): -2.06 (-3.29 / -2.06 / 0.65).
I107K (input reads 258): -2.20 (-2.91 / -2.20 / -1.95).
Y110P (input reads 190): -2.45 (-2.45 / -1.91 / -3.99).
Y110W (input reads 107): -1.47 (-3.00 / -1.47 / 0.46).
Y111C (input reads 87): -2.72 (-2.72 / -3.28 / -1.68).
Y111Q (input reads 101): -2.09 (-2.09 / -1.91 / -2.37).
D113E (input reads 51): -0.95 (-4.31 / -0.95 / -0.92).

The opening 4 entries, copied out:

* Q12G (input reads 39) -> 0.58 (-0.43 / 4.19 / 0.58)
* I18Q (input reads 256) -> -1.97 (-1.97 / -2.74 / -1.64)
* K19H (input reads 646) -> -2.18 (-2.18 / -2.90 / -1.82)
* T20W (input reads 333) -> 1.07 (0.45 / 1.34 / 1.07)